Results from patent US7671181B2, “Polynucleotides encoding coccidian parasite casein kinase I, a chemotherapeutic target for antiprotozoal agents” (Merck Sharp & Dohme Corp., priority 2004, dated 2010).

By UniProt entry, the sequences of proteins in these tests, tags left out. Where a name states a change or a piece, a line headed by the entry shows the natural chain unless it says otherwise.
UniProt Q6QNL9, whole entry: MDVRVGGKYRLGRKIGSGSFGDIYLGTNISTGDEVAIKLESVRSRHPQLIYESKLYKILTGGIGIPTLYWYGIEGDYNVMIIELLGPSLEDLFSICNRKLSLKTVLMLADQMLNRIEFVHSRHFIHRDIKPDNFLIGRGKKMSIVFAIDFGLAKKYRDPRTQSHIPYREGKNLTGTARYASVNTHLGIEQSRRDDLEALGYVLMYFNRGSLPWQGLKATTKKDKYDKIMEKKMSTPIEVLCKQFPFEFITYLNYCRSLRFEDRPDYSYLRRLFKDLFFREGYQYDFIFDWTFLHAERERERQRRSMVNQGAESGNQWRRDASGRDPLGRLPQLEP

How the values were obtained:
[1] = target: Eimeria tenella casein kinase I alpha (native EtCKIα), SEQ ID NO:2 (Eimeria tenella, UniProt Q6QNL9); assay: Casein kinase assay, inhibition of partially purified native EtCKIα; conditions: at 250 nM; cation exchange purified native enzyme
Method: (§1) Protein kinase assays—Casein kinase activity was assayed essentially as described (Donald, R. G. K. et al., 2002, supra) using 96-well phosphocellulose plates (MAPH-NOB, Millipore; Billerica, Mass.) to capture ^33P-phosphorylated peptide or casein substrates. Kinase reactions were carried out in 40 μl volumes containing 25 mM Hepes, pH 7.4, 10 mM MgCl2, 20 mM β-glycerophosphate, 1 mM DTT, 250 μM substrate, 1 mg/mL BSA, 2 μM ATP, and 0.01 μM [γ-^33P]ATP (Perkin-Elmer, 3000 Ci/mmol). The reactions were initiated by the addition of enzyme and incubated at room temperature for 60 min. Casein (5% solution), partially dephosphorylated α-casein and β-casein were obtained from Sigma.
A variety of commercially available peptide substrates were evaluated. From Calbiochem (San Diego, Calif.): CKI substrate (RRKDLHDDEEDEAMSITA; SEQ ID NO:13); CKII substrate (RRADDSDDDDD; SEQ ID NO:14); Syntide-2 substrate (PLARTLSVAGLPGKK; SEQ ID NO:15); CaM kinase II substrate (281-291) (MHKNETVECLK; SEQ ID NO:16). From Promega: CKI substrate (DDDEESITRR; SEQ ID NO:17) and kemptide (LRRASLG; SEQ ID NO:18). From New England Biolabs (Beverly, Mass.): CKI phosphopeptide substrate (KRRRALS(p)VASLPGL; SEQ ID NO:19), and CKII substrate (RRREEETEEE; SEQ ID NO:20). PKG assays were performed with kemptide as substrate and 10 μM cGMP. CDPK was assayed with Syntide-2 substrate and in the presence of 100 μM CaCl2. […]

[2] = system: Eimeria tenella CDPK2 (FLAGEtCDPK2, recombinant); assay: Kinase assay, inhibition of FLAGEtCDPK2; conditions: dose response titration, Table 3
Method: as §1
A variety of commercially available peptide substrates were evaluated. From Calbiochem (San Diego, Calif.): CKI substrate (RRKDLHDDEEDEAMSITA; SEQ ID NO:13); CKII substrate (RRADDSDDDDD; SEQ ID NO:14); Syntide-2 substrate (PLARTLSVAGLPGKK; SEQ ID NO:15); CaM kinase II substrate (281-291) (MHKNETVECLK; SEQ ID NO:16). From Promega: CKI substrate (DDDEESITRR; SEQ ID NO:17) and kemptide (LRRASLG; SEQ ID NO:18). From New England Biolabs (Beverly, Mass.): CKI phosphopeptide substrate (KRRRALS(p)VASLPGL; SEQ ID NO:19), and CKII substrate (RRREEETEEE; SEQ ID NO:20). PKG assays were performed with kemptide as substrate and 10 μM cGMP. CDPK was assayed with Syntide-2 substrate and in the presence of 100 μM CaCl2.

In the case of `CN(C)Cc1ccn2c(-c3ccnc(N)n3)c(-c3ccc(F)cc3)nc2c1`, the inhibition [1] was 100% and the pIC50 [2] was under 5.00.

pIC50: −log10 of the molar value.
